Results of unrelated studies side by side (data: NIAID ChemDB).

ICn is the concentration giving n% inhibition.

structure	test	species	strain	cell line	target	method	read-out	dose	result
Cc1ccc(NP2(Nc3ccc(C)cc3)=NP(Nc3ccc(C)cc3)(N3CC3)=NP(Nc3ccc(C)cc3)(N3CC3)=N2)cc1	culture	Mycobacterium tuberculosis	H37Rv	-	-	BACTEC	MIC	-	2 µg/mL
Cc1cc(C)cc(-c2cncc(N3CCN(c4cnccn4)CC3)n2)c1	target	Cytomegalovirus	-	-	UL97 kinase	-	IC50	-	<100 µM
COc1cc2ccc(=O)oc2cc1O	culture	Mycobacterium tuberculosis	H37Rv	-	-	BACTEC	MIC bound	-	>12.5 µg/mL
Fc1ccc(N2CCCCC2)c(NC(=S)c2ccncc2)c1	host protein	-	-	-	LTK	kinase activity	inhibition	10 µM	6.8%
CCOCC(=O)OCC	culture	Mycobacterium tuberculosis	H37Rv	-	-	-	MIC	-	50 µg/mL
COc1ccc(Cl)cc1-c1cncc(N2CCN(c3ccccc3OC)CC2)n1	target	Cytomegalovirus	-	-	UL97 kinase	-	inhibition	10 µM	>15%
COC(=O)c1cc(O)ccc1O	culture	Mycobacterium tuberculosis	H37Rv	-	-	-	MIC	-	100 µg/mL
Cn1c(C(=O)NN)cc2cc(OCc3ccccc3)ccc21	culture	Mycobacterium tuberculosis	H37Rv	-	-	BACTEC	inhibition	12.5 µg/mL	-6%
Fc1cc(-c2cncc(N3CCN(c4ccccc4)CC3)n2)ccc1-c1ccccc1	target	Cytomegalovirus	-	-	UL97 kinase	-	inhibition	10 µM	>15%
COC(=O)C(NC(=O)c1ccc(N)cc1)c1ccccc1	culture	Mycobacterium tuberculosis	H37Rv	-	-	-	MIC	-	50 µg/mL
Cc1ccccc1-c1cncc(N2CCN(c3ccccc3)CC2)n1	target	Cytomegalovirus	-	-	UL97 kinase	-	IC50	-	<100 µM
O=C1CCC(c2ccccc2)(c2ccccc2)O1	culture	Mycobacterium tuberculosis	H37Rv	-	-	-	MIC	-	>100 µg/mL
O=[N+]([O-])c1ccc2oc([N+](=O)[O-])cc2c1	culture	Mycobacterium tuberculosis	H37Rv	VERO	-	-	MIC	-	0.78 µg/mL
Clc1c(Cl)c(Cl)c2ccccc2c1Cl	culture	Mycobacterium tuberculosis	H37Rv	-	-	-	MIC	-	>100 µg/mL
CN(C)c1ccc(-c2cncc(N3CCN(c4cccc(Cl)c4)CC3)n2)cc1	target	Cytomegalovirus	-	-	UL97 kinase	-	IC50	-	<100 µM
O=C(O)c1ccccc1O	culture	Mycobacterium tuberculosis	H37Rv	-	-	-	MIC	-	>100 µg/mL
COc1ccc(N2CCN(c3cncc(-c4cccc5ccccc45)n3)CC2)cc1OC	target	Cytomegalovirus	-	-	UL97 kinase	-	inhibition	10 µM	>15%
COc1ccc2cc1-c1cc(ccc1O)C[C@H]1c3cc4c(cc3CCN1C)Oc1c(OC)cc3c(c1O4)[C@H](C2)N(C)CC3	culture	Mycobacterium tuberculosis	PAS-R	-	-	-	MIC	-	3.1 µg/mL
Nc1cccc(-c2ccncc2)c1	culture	Mycobacterium tuberculosis	H37Rv	-	-	-	MIC	-	50 µg/mL
CC1=NN(c2ccccc2)C(=O)C1N=Nc1ccc(S(=O)(=O)Nc2nnc(C)s2)cc1	culture	Mycobacterium tuberculosis	H37Rv	VERO	-	-	MIC	-	3.1 µg/mL
COc1ccc(N2CCN(c3cncc(-c4ccsc4)n3)CC2)cc1OC	target	Cytomegalovirus	-	-	UL97 kinase	-	inhibition	1 µM	<50%
CN(C)c1ccc(N)c(NS(C)(=O)=O)c1.O=S(=O)(O)O	culture	Mycobacterium tuberculosis	H37Rv	-	-	-	MIC	-	>100 µg/mL
COC(=O)[C@@]12Oc3ccc(-c4ccc5c(c4O)C(O)=C4C(=O)C[C@H](C)[C@@H](O)[C@]4(C(=O)OC)O5)c(O)c3C(O)=C1C(=O)C[C@H](C)[C@H]2O	culture	Mycobacterium tuberculosis	H37Rv	-	-	BACTEC	inhibition	12.8 µg/mL	1%
c1ccc2sc(SSc3nc4ccccc4s3)nc2c1	culture	Mycobacterium tuberculosis	H37Rv	-	-	-	MIC	-	>100 µg/mL
O=C1NC23C(=O)N(C4CCCCC4)CC2(Cc2ccccc2)c2ccccc2N3C1=O	culture	Mycobacterium tuberculosis	H37Rv	-	-	BACTEC	inhibition	12.8 µg/mL	26%
COc1ccc(N2CCN(c3cncc(-c4ccc(C(F)(F)F)cc4)n3)CC2)cc1	target	Cytomegalovirus	-	-	UL97 kinase	-	IC50	-	<10 µM
c1ccc2c(c1)N=NN1CCCOC21	culture	Mycobacterium tuberculosis	H37Rv	-	-	BACTEC	MIC bound	-	>12.5 µg/mL
Nc1cccc(S(=O)(=O)NCCO)c1	culture	Mycobacterium tuberculosis	H37Rv	-	-	-	MIC	-	>100 µg/mL
COC1CC(OC2CCC3(C)C(CCC4C3CCC3(C)C(C5=CC(=O)OC5)CCC43O)C2)OC(C)C1O	culture	Mycobacterium tuberculosis	H37Rv	-	-	BACTEC	MIC bound	-	>12.5 µg/mL
COc1ccc(N2CCN(c3cncc(-c4cccs4)n3)CC2)cc1OC	target	Cytomegalovirus	-	-	UL97 kinase	-	IC50	-	<10 µM

The last 4 rows once more:

c1ccc2c(c1)N=NN1CCCOC21 ; test: culture ; species: Mycobacterium tuberculosis ; strain: H37Rv ; method: BACTEC ; read-out: MIC bound ; result: >12.5 µg/mL
Nc1cccc(S(=O)(=O)NCCO)c1 ; test: culture ; species: Mycobacterium tuberculosis ; strain: H37Rv ; read-out: MIC ; result: >100 µg/mL
COC1CC(OC2CCC3(C)C(CCC4C3CCC3(C)C(C5=CC(=O)OC5)CCC43O)C2)OC(C)C1O ; test: culture ; species: Mycobacterium tuberculosis ; strain: H37Rv ; method: BACTEC ; read-out: MIC bound ; result: >12.5 µg/mL
COc1ccc(N2CCN(c3cncc(-c4cccs4)n3)CC2)cc1OC ; test: target ; species: Cytomegalovirus ; target: UL97 kinase ; read-out: IC50 ; result: <10 µM

Rows are shuffled and stem from different studies. Blank or dashed fields: not listed here. MIC bound comes from a single tested concentration. Inhibition is in % at the dose shown (toxicity tests: loss of growth or viability).